Ten substances from patent publication US20240115717A1 can be followed below.

The IC50 is the concentration that gives 50% inhibition. Higher therefore signals lower potency.

In experiment [1] the target is his-tagged MMP-2 (Co-bead test; ProSpec #ENZ-769) (human) (UniProt P08253).
The target is the same in experiment [2]. The source holds these as a separate data set.
The target of experiment [3] is MMP-2 (Magnabead test, anchored by rabbit anti-MMP-2 antibody) (human) (UniProt P08253). As to the kind of experiment: Magnabead test, displacement of 1 µM CTX-A488 from MMP-2, flow cytometry. In general terms: In flow cytometry, cells or beads pass a laser one at a time.

Read-outs that look alike come from different tables or passages of the source.

As to “phage-displayed CTXD of SEQ ID NO: 12 (peptide; modification not given)”, the Relative MMP-2 binding (fold of CTX phage) in experiment [1] was 2.63.

Substance “phage-displayed CTXD of SEQ ID NO: 8 (peptide; modification not given)” had a Relative MMP-2 binding (fold of CTX phage) in experiment [1] of 2.98.

For “phage-displayed CTXD of SEQ ID NO: 10 (peptide; modification not given)”, the Relative MMP-2 binding (fold of CTX phage) in experiment [1] is 2.95.

“phage-displayed CTXD of SEQ ID NO: 14 (peptide; modification not given)” registered a Relative MMP-2 binding (fold of CTX phage) in experiment [1] of 1.99.

In the case of “phage-displayed CTXD of SEQ ID NO: 13 (peptide; modification not given)”, in experiment [1], the Relative MMP-2 binding (fold of CTX phage) turned out to be 2.35.

As for “phage-displayed CTXD of SEQ ID NO: 6 (peptide; modification not given)”, the Relative MMP-2 binding (fold of CTX phage) in experiment [1] turned out to be 3.08.

Turning to “phage-displayed CTXD of SEQ ID NO: 11 (peptide; modification not given)”, the Relative MMP-2 binding (fold of CTX phage) in experiment [1] was found to be 2.73.

On to “phage-displayed CTXD of SEQ ID NO: 16 (peptide; modification not given)”, for which, in experiment [1], the Relative MMP-2 binding (fold of CTX phage) is 1.78.

“phage-displayed CTXD5 (SEQ ID NO: 4) (peptide; modification not given)” returned a Relative MMP-2 binding (fold of CTX phage) in experiment [2] of 3.12.

As to “CTXD5 (purified, recombinant) (peptide; modification not given)”, the IC50 in experiment [3] came out at 0.22 µM.
